From article PMC4663627

Key:
[1] = biological target: T1, p19 (GST-p19) (Cymbidium ringspot virus (CymRSV)) (UniProt P17457); test: SiNW-FET conductance; conditions: phosphate solution (240 uM NaH2PO4, 760 uM Na2HPO4), pH 7.4, Debye length 6.1 nm, temperature not given, recombinant protein, protein details: GST (pGEX-4T-1), N-terminal
T1 sequence (looked up, limits assumed): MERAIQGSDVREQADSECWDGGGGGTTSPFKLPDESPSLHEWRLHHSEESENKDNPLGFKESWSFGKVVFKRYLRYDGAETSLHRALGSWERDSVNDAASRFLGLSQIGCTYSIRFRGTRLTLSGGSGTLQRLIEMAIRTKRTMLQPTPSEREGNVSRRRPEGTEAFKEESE

[2] = biological target: T1, p19 (GST-p19) (Cymbidium ringspot virus (CymRSV)); test: fluorescence imaging on protein micropatterns; conditions: phosphate solution (240 uM NaH2PO4, 760 uM Na2HPO4), pH 7.4, Debye length 6.1 nm; temperature not given; recombinant protein; protein details: GST (pGEX-4T-1), N-terminal; label: 5'-FITC (Fig. S4, Methods state Cy5)

CGTACGCGGAATACTTCGATT / TCGAAGTATTCCGCGTACGTT [ds-sDNA-0]
binding result ([1]; 1 uM DNA): no binding

CGUACGCGGAAUACUUCGAUU / UCGAAGUAUUCCGCGUACGUU [FITC-ds-sRNA (21-nt)]
binding result [2]: binds

CGUACGCGGAAUACUUCGAUU [ss-sRNA-0]
binding result ([1]; 1 uM RNA, 5'-phosphate): no binding

For at least one entry, the source does not settle the construct or the ends of the probe. For part of these data: No signal at the amounts used counts as a negative. Protein sequences can lack the tags named with them.
